Source: patent US20250313596A1, “BACILLUS SUBTILIS STRAINS PRODUCING NEW MYCOSUBTILIN ISOFORMS” (Universite de Lille, priority 2022, published 2025)

Tested on: Vero cells
Assay type: cell-based
Procedure: The cytotoxicity test is performed using Vero cells and the CyQUANT™ XTT Cell Viability assay kit (supplied by Invitrogen™).
Samples are dissolved in 100% DMSO at a concentration of 20-50 g/L. The final concentration in DMEM medium is 40 μg/L. Cells were prepared in flasks containing DMEM cell culture medium with 10% FBS as follows:
A 175 ml flask containing 20-30 million cells with 25 ml medium and 2 ml trypsin was added. Then the medium was discarded as the cells were attached to the flask wall. Rinse twice with PBS, then trypsin was added to detach cells from the flask wall. The mixture was incubated for 5 min at 37° C. To inactivate trypsin, 6 ml […] was added to the medium (twice the volume of the original trypsin in the medium).
In a 50 ml flask, the medium was centrifuged for 5 min at 300 g. […]. The medium was discarded, and the cells were resuspended. 100 μL of cells were added to 100 μL of dye, then 12 μL was used for counting. The percentage of viability was compared with a control of cells without any treatment.
The test is performed in a 96-well plate. A range of concentrations (mg/l) 0.14; 0.28; 0.56; 1.16; 2.25; 4.5 is used to determine the toxicity limit of each isoform.

Substance: conventional C17 isoform of mycosubtilin, ring Asn-Tyr-Asn-Gln-Pro-Ser-Asn (peaks 5, 6, 7; FIG. 1) (NYNQPSN; cyclic lipopeptide with C17 fatty chain; printed: Asn-Tyr-Asn-Gln-Pro-Ser-Asn) [A-C17]
- EC50 times less than the new isoforms of the same chain length: at least 2 times
